Results reported in patent publication US20130046134A1, “METHODS OF GENERATINGENGINEEREDINNERVATEDTISSUE AND USES THEREOF” (published 2013).

Tested on: co-cultured cells (ventricular cardiomyocytes with cortical neurons)

With Tetrotodoxin the “Observed effect on Co-culture Sub-pop 1” value (action potential, co-culture sub-population 1, optical mapping) was “little to none”, the “Observed effect on Co-culture Sub-pop 2” value (action potential, co-culture sub-population 2, optical mapping) was “little to none” and the “Expected effect on mature AP” value (predicted effect of channel blocker on mature action potential) was “AP inhibition”. The “Expected effect on neonatal AP” value (predicted effect of channel blocker on neonatal action potential) was “little to none”.
